Results of unrelated studies side by side (data: NIAID ChemDB).

All rows: growth or infection tests; species: HIV-1; cell line: CEM + CEM-SS; read-out: EC50

Rows are shuffled and stem from different studies. ECn is the concentration giving n% inhibition of infection, replication or growth. Blank or dashed fields: not listed here.

| structure | strain | changes | read by | value |
|---|---|---|---|---|
| Cc1cn([C@H]2C[C@H](N=[N+]=[N-])[C@@H](CO)O2)c(=O)[nH]c1=O | ED | - | cytopathic effect / MTT | 0.001 µM |
| C/C=C/CSc1cc(NC(=S)c2ccsc2C)ccc1Cl | UC10-resistant (RT Y181C K101E) | RT-Y181C K101E | cytopathic effect / XTT | >2 µM |
| CCc1c(C(=O)c2cc(C)cc(C)c2)n(CC2CC=CC2)c(=O)[nH]c1=O | NL4-3 | RT-K103N | cytopathic effect / XTT | >0.14 µM |
| Cc1cn([C@@H]2O[C@H](CO[Si](C)(C)C(C)(C)C)[C@@]3(OS(=O)(=O)C=C3N)[C@H]2O[Si](C)(C)C(C)(C)C)c(=O)[nH]c1=O | UC040-R (RT-Y181C) | RT-Y181C | cytopathic effect / XTT | >10 µM |
| Cc1c(Sc2ccccc2)n(COCCO)c(=O)[nH]c1=O | IIIB | - | cytopathic effect / XTT | 17.8 µM |
| Cc1cn([C@H]2C[C@H](N=[N+]=[N-])[C@@H](CO)O2)c(=O)[nH]c1=O | Costatolide-resistant (RT Y188H) | RT-Y188H | XTT | 0.004 µM |
| Cc1ccnc2c1NC(=O)c1cccnc1N2C1CC1 | 3TC-RS (RT-M184I) | RT-M184I | cytopathic effect / XTT | 0.01 µM |
| CCCc1cc(=O)oc2c3c(c4c(c12)OC(C)(C)C=C4)O[C@H](C)[C@@H](C)[C@@H]3O | SK1 | - | XTT | 0.09 µM |
| Cc1occc1C(=S)Nc1ccc(Cl)c(/C=N/OC(C)(C)C)c1 | Isolate NL4-3 | - | cytopathic effect / XTT | 0.08 µM |
| Cc1ccnc2c1NC(=O)c1cccnc1N2C1CC1 | Thiazolobenzimidazole-resistant (RT V108I) | RT-V108I | XTT | 0.3 µM |
| Cc1ccnc2c1NC(=O)c1cccnc1N2C1CC1 | NL4-3 | RT-V179D | cytopathic effect / XTT | 0.03 µM |
| CCCc1cc(=O)oc2c3c(c4c(c12)OC(C)(C)C=C4)O[C@@H](C)[C@H](C)[C@@H]3O | Dihydrocostatolide-resistant (RT-L100I) | RT-L100I | XTT | >27 µM |
| CCc1c(Sc2ccccn2)n(COCc2ccccc2)c(=O)[nH]c1=O | NL4-3 | - | cytopathic effect / XTT | 0.018 µM |
| O=S(=O)(c1ccccc1)c1ccccc1 | IIIB | - | XTT | 3.7 µM |
| Cc1cn([C@H]2C[C@H](N=[N+]=[N-])[C@@H](CO)O2)c(=O)[nH]c1=O | NL4-3 | - | cytopathic effect / XTT | 0.001 µM |

2 of the rows above, restated:

| structure | strain | changes | read by | value |
|---|---|---|---|---|
| CCc1c(C(=O)c2cc(C)cc(C)c2)n(CC2CC=CC2)c(=O)[nH]c1=O | NL4-3 | RT-K103N | cytopathic effect / XTT | >0.14 µM |
| CCc1c(Sc2ccccn2)n(COCc2ccccc2)c(=O)[nH]c1=O | NL4-3 | - | cytopathic effect / XTT | 0.018 µM |